Anti-infective test results gathered from many reports (values: NIAID ChemDB through PubChem).

All rows: tests in culture; agent: Cryptosporidium parvum; measure: inhibition

Blank or dashed fields: not listed here. Neighbouring rows are from separate reports. Percent inhibition refers to the dose given; in toxicity tests it is the harm to the cells.

SMILES	dose	strain	cell line	result
O=c1[nH]c(=O)n([C@H]2C[C@H](O)[C@@H](CO)O2)cc1/C=C/Br	25 µg/mL			13%
CC(C)N=C(N)/N=C(\N)Nc1ccc(Cl)cc1	4 µg/mL	Calf isolate	L929	5%
CC[C@@H]1O[C@@H]([C@]2(C)C[C@@H](C)[C@](O)([C@]3(C)CC[C@@H]([C@@H](O)[C@]4(O)O[C@H](C[C@@]5(O)O[C@@H]([C@@H](C)[C@H](O)C[C@@H]6O[C@H]([C@@H](C)C(=O)O)[C@@H](C)C[C@H]6C)CC[C@@H]5C)[C@@H](C)C[C@H]4C)O3)O2)CC[C@@]1(C)O	1 µM		HCT-8	100%
CCN(CC)CCCC(C)Nc1ccnc2cc(Cl)ccc12	4 µg/mL	Calf isolate	L929	31.22%
Nc1nc(=O)n([C@H]2C[C@H](O)[C@@H](CO)O2)cc1I	50 µg/mL			90%
CC[C@@]1([C@@H]2O[C@@H]([C@H]3O[C@@](O)(CO)[C@H](C)C[C@@H]3C)C[C@@H]2C)CC[C@H]([C@]2(C)CC[C@]3(C[C@H](O)[C@@H](C)[C@@H]([C@@H](C)[C@@H](OC)[C@H](C)C(=O)O)O3)O2)O1	0.032 µg/mL	Calf isolate	L929	35.14%
CO[C@H]1O[C@@H](n2ccc(=O)[nH]c2=O)C[C@@H]1N=[N+]=[N-]	10 µg/mL			9%
CN(C)[C@@H]1C(=O)C(C(N)=O)=C(O)[C@@]2(O)C(=O)C3=C(O)c4c(O)cccc4[C@@](C)(O)[C@H]3[C@H](O)[C@@H]12	0.032 µg/mL	Calf isolate	L929	-2.29%
Nc1nc2c(ncn2COCCO)c(=O)[nH]1	50 µg/mL			0%
C[C@H]1[C@H](O)[C@@H](C)/C=C/C=C/C=C/C=C/C=C/C=C/C=C/[C@H](O[C@@H]2O[C@H](C)[C@@H](O)[C@H](N)[C@@H]2O)C[C@@H]2O[C@](O)(C[C@@H](O)C[C@@H](O)CC[C@H](O)[C@@H](O)C[C@@H](O)CC(=O)O[C@H]1C)C[C@H](O)[C@H]2C(=O)O	4 µg/mL	Calf isolate	L929	3.7%
O=C(O)P(=O)(O)O	50 µg/mL			3%
Cc1ccc(C(=O)Nc2ccc(S(=O)(=O)O)c3cc(S(=O)(=O)O)cc(S(=O)(=O)O)c23)cc1NC(=O)c1cccc(NC(=O)Nc2cccc(C(=O)Nc3cc(C(=O)Nc4ccc(S(=O)(=O)O)c5cc(S(=O)(=O)O)cc(S(=O)(=O)O)c45)ccc3C)c2)c1	1 µM		HCT-8	33%
CCCCN(CCCC)CCC(O)c1cc2c(Cl)cc(Cl)cc2c2cc(C(F)(F)F)ccc12	0.8 µg/mL	Calf isolate	L929	-23.12%
CC(C)(C)NC(=O)[C@@H]1C[C@@H]2CCCC[C@@H]2CN1C[C@@H](O)[C@H](Cc1ccccc1)NC(=O)[C@H](CC(N)=O)NC(=O)c1ccc2ccccc2n1	10 µg/mL		HCT-8	10%
CO[C@@H]1[C@@H](O[C@@H]2O[C@H](C)[C@@H](O[C@H]3C[C@@](C)(O)[C@@H](O)[C@H](C)O3)[C@H](N(C)C)[C@H]2O)[C@@H](CC=O)C[C@@H](C)[C@@H](O[C@H]2CC[C@H](N(C)C)[C@H](C)O2)/C=C/C=C/C[C@@H](C)OC(=O)C[C@H]1O	0.8 µg/mL	Calf isolate	L929	30.05%
Cc1cn([C@@H]2O[C@H](CO)[C@@H](O)[C@@H]2O)c(=O)[nH]c1=O	5 µg/mL			0%
COc1cc([C@@H]2c3cc4c(cc3[C@@H](O[C@@H]3O[C@@H]5CO[C@@H](c6cccs6)O[C@H]5[C@H](O)[C@H]3O)[C@H]3COC(=O)[C@H]23)OCO4)cc(OC)c1O	1 µM		HCT-8	0%
CC(C)CN(C[C@@H](O)[C@H](Cc1ccccc1)NC(=O)O[C@H]1CCOC1)S(=O)(=O)c1ccc(N)cc1	25 µg/mL		HCT-8	5%
CC(C)[C@H](NC(=O)[C@H](CCCN=C(N)N)NC(=O)N[C@@H](Cc1ccccc1)C(=O)O)C(=O)N[C@H](C=O)CCCN=C(N)N	5 µg/mL			32.26%
C[C@H]1c2cccc(O)c2C(O)=C2C(=O)[C@]3(O)C(O)=C(C(N)=O)C(=O)[C@@H](N(C)C)[C@@H]3[C@@H](O)[C@@H]21	1 µM		HCT-8	0%
NC12CC3CC(CC(C3)C1)C2	25 µg/mL			7%

3 of the rows above, restated:

SMILES | dose | strain | cell line | result
Nc1nc2c(ncn2COCCO)c(=O)[nH]1 | 50 µg/mL |  |  | 0%
C[C@H]1[C@H](O)[C@@H](C)/C=C/C=C/C=C/C=C/C=C/C=C/C=C/[C@H](O[C@@H]2O[C@H](C)[C@@H](O)[C@H](N)[C@@H]2O)C[C@@H]2O[C@](O)(C[C@@H](O)C[C@@H](O)CC[C@H](O)[C@@H](O)C[C@@H](O)CC(=O)O[C@H]1C)C[C@H](O)[C@H]2C(=O)O | 4 µg/mL | Calf isolate | L929 | 3.7%
Cc1cn([C@@H]2O[C@H](CO)[C@@H](O)[C@@H]2O)c(=O)[nH]c1=O | 5 µg/mL |  |  | 0%